Pooled drug test results. Numbers come from NIAID ChemDB, via PubChem.

Common to all: growth or infection tests; organism: Haemophilus influenzae

Lines come from different laboratories, so protocols vary. A number after MIC or MFC names an inhibition level or a share of isolates.

compound,read-out,strain,value
CC[C@H]1OC(=O)[C@@](C)(F)C(=O)[C@H](C)[C@@H](O[C@@H]2O[C@H](C)C[C@H](N(C)C)[C@H]2O)[C@@]2(C)C[C@@H](C)C(=NC(C)=O)[C@H](C)[C@@H](OC/C(=N\OCc3ccc4cnn(C(N)=O)c4c3)CO2)[C@]1(C)O,MIC,33929 (ampicillin-resistant),4 µg/mL
CC[C@H]1OC(=O)[C@H](C)C(=O)[C@H](C)[C@@H](O[C@@H]2O[C@H](C)C[C@H](N(C)C)[C@H]2O)[C@@]2(C)C[C@@H](C)C(=NC(C)=O)[C@H](C)[C@@H](OC/C(=N\OCCCc3ccccc3)CO2)[C@]1(C)O,MIC,33929 (ampicillin-resistant),32 µg/mL
C=C1COC2[C@@H](C)C(=O)[C@H](C)C[C@@](C)(OC1)[C@H](O[C@@H]1O[C@H](C)C[C@H](N(C)C)[C@H]1O)[C@@H](C)C(=O)[C@@H](C)C(=O)O[C@H](CC)[C@@]2(C)O,MIC,33929 (ampicillin-resistant),>64 µg/mL
CC[C@H]1OC(=O)[C@H](C)[C@@H](O[C@H]2C[C@@](C)(OC)[C@@H](O)[C@H](C)O2)[C@H](C)[C@@H](O[C@@H]2O[C@H](C)C[C@H](N(C)C)[C@H]2O)[C@](C)(O)C[C@@H](C)/C(=N\OCOCCOC)[C@H](C)[C@@H](O)[C@]1(C)O,MIC50,434 strains,8 µg/mL
CC[C@H]1OC(=O)[C@@](C)(F)C(=O)[C@H](C)[C@@H](O[C@@H]2O[C@H](C)C[C@H](N(C)C)[C@H]2O)[C@@]2(C)C[C@@H](C)C(=NC(C)=O)[C@H](C)[C@@H](OC/C(=N\OCC#Cc3cccc(N)n3)CO2)[C@]1(C)O,MIC,33929 (ampicillin-resistant),4 µg/mL
CC(=O)NC[C@H]1CN(c2ccc(-c3ccn(C(C)=O)n3)c(F)c2)C(=O)O1,MIC,UC 30063,64 µg/mL
CC[C@H]1OC(=O)C[C@@H](O)[C@H](C)[C@@H](O[C@@H]2O[C@H](C)[C@@H](O)[C@H](N(C)C)[C@H]2O)C(C=O)C[C@@H](C)C(=O)/C=C/C(C)=C/[C@@H]1COC(N)=O,MIC,33929 (ampicillin-resistant),2 µg/mL
CC[C@H]1OC(=O)[C@H](C)C(=O)[C@H](C)[C@@H](O[C@@H]2O[C@H](C)C[C@H](N(C)C)[C@H]2O)[C@@]2(C)C[C@@H](C)C(=NC(C)=O)[C@H](C)[C@@H](OC/C(=N\OCc3ccc(-n4cccn4)nc3)CO2)[C@]1(C)O,MIC90,25 strains,16 µg/mL
CC[C@H]1OC(=O)[C@H](C)C(=O)[C@H](C)[C@@H](O[C@@H]2O[C@H](C)C[C@H](N(C)C)[C@H]2O)[C@@]2(C)C[C@@H](C)C(=NC(C)=O)[C@H](C)C(OC/C(=N\OCC#Cc3cccc(N)n3)CO2)[C@]1(C)O,MIC50,25 strains,0.125 µg/mL
CC[C@H]1OC(=O)[C@H](C)C(=O)[C@H](C)[C@@H](O[C@@H]2O[C@H](C)C[C@H](N(C)C)[C@H]2O)[C@@]2(C)C[C@@H](C)C(=NC(C)=O)[C@H](C)[C@@H](OC/C(=N\Oc3ccc(-n4cccn4)nc3)CO2)[C@]1(C)O,MIC,33929 (ampicillin-resistant),4 µg/mL
COc1c(N2C[C@@H]3CCCN[C@@H]3C2)c(F)cc2c(=O)c(C(=O)O)cn(C3CC3)c12,MIC90,233 isolates,0.04 µg/mL
CC[C@H]1OC(=O)C[C@@H](O)[C@H](C)[C@@H](O[C@@H]2O[C@H](C)[C@@H](O)[C@H](N(C)C)[C@H]2O)C(C=O)C[C@@H](C)C(=O)/C=C/C(C)=C/[C@@H]1COCc1ccccc1,MIC,33929 (ampicillin-resistant),0.5 µg/mL
CC(=O)NC[C@H]1CN(c2ccc(-c3ccn(CC#N)n3)c(F)c2)C(=O)O1,MIC,UC 30063,32 µg/mL
CC[C@H]1OC(=O)C[C@@H](O)[C@H](C)[C@@H](O[C@@H]2O[C@H](C)[C@@H](O)[C@H](N(C)C)[C@H]2O)C(C=O)C[C@@H](C)C(=O)/C=C/C(C)=C/[C@@H]1COC(=O)Nc1cc(F)cc(F)c1,MIC,33929 (ampicillin-resistant),1 µg/mL
CC[C@H]1OC(=O)[C@H](C)C(=O)[C@H](C)[C@@H](O[C@@H]2O[C@H](C)C[C@H](N(C)C)[C@H]2O)[C@@]2(C)C[C@@H](C)C(=NC(C)=O)[C@H](C)[C@@H](OC/C(=N\Oc3ccccc3)CO2)[C@]1(C)O,MIC,33929 (ampicillin-resistant),32 µg/mL
CC(C)(C)[C@H](NC(=O)C(CC1CCCC1)CN(O)C=O)C(=O)N1CCN(Cc2nccs2)CC1,MIC,Isolate 107022,2 µg/mL
CC[C@H]1OC(=O)[C@@](C)(F)C(=O)[C@H](C)[C@@H](O[C@@H]2O[C@H](C)C[C@H](N(C)C)[C@H]2O)[C@@]2(C)C[C@@H](C)C(=NC(C)=O)[C@H](C)[C@@H](OC/C(=N\OCc3ccc(-c4csnn4)nc3)CO2)[C@]1(C)O,MIC,33929 (ampicillin-resistant),4 µg/mL
CC[C@H]1OC(=O)[C@H](C)C(=O)[C@H](C)[C@@H](O[C@@H]2O[C@H](C)C[C@H](N(C)C)[C@H]2O)[C@@]2(C)C[C@@H](C)C(=NC(C)=O)[C@H](C)C(OC/C=C/CO2)[C@]1(C)O,MIC,33929 (ampicillin-resistant),>64 µg/mL
CC[C@H]1OC(=O)[C@H](C)C(=O)[C@H](C)[C@@H](O[C@@H]2O[C@H](C)C[C@H](N(C)C)[C@H]2O)[C@@]2(C)C[C@@H](C)C(=NC(C)=O)[C@H](C)[C@@H](OC/C(=N\OCc3ccc(C(N)=O)cc3)CO2)[C@]1(C)O,MIC,33929 (ampicillin-resistant),4 µg/mL
CC(=O)NC[C@H]1CN(c2ccc(-c3csc(C)c3)c(F)c2)C(=O)O1,MIC,UC 30063,>16 µg/mL
CC[C@H]1OC(=O)[C@H](C)C(=O)[C@H](C)[C@@H](O[C@@H]2O[C@H](C)C[C@H](N(C)C)[C@H]2O)[C@@]2(C)C[C@@H](C)C(=NC(C)=O)[C@H](C)C(OC/C(=C\C=C\c3cccnc3)CO2)[C@]1(C)O,MIC,33929 (ampicillin-resistant),8 µg/mL
CNC(=O)C1[C@H]2CN(c3c(F)cc(N4C[C@H](CNC(C)=O)OC4=O)cc3F)C[C@@H]12,MIC,ATCC31517,8 µg/mL
CC[C@H]1OC(=O)[C@H](C)C(=O)[C@H](C)[C@@H](O[C@@H]2O[C@H](C)C[C@H](N(C)C)[C@H]2O)[C@@](C)(OC/C=C/c2cnc3ccccc3c2)C[C@@H](C)C(=O)[C@H](C)[C@H]2N(N)C(=O)O[C@]12C,MIC,DILL,4 µg/mL
CC(=O)NC[C@H]1CN(c2ccc(-c3noc(C)n3)c(F)c2)C(=O)O1,MIC,UC 30063,>16 µg/mL
CC[C@H]1OC(=O)[C@H](C)C(=O)[C@H](C)[C@@H](O[C@@H]2O[C@H](C)C[C@H](N(C)C)[C@H]2O)[C@](C)(OC)C[C@@H](C)C2=NCCN3C(=O)O[C@@]1(C)[C@H]3[C@H]2C,MIC,DILL,4 µg/mL
CO/N=C1\CN(c2nc3c(cc2F)c(=O)c(C(=O)O)cn3C2CC2)CC1CN,MIC90,24 strains,0.016 µg/mL
CC(=O)NC[C@H]1CN(c2cc(F)c(N3C[C@@H]4C(C(=O)O)[C@@H]4C3)c(F)c2)C(=O)O1,MIC,ATCC31517,4 µg/mL
CCNC(=O)[C@@H](NC(=O)Cc1ccccc1)[C@@H]1N[C@@H](C(=O)NCCNC(=O)[C@@H]2N[C@@H]([C@H](NC(=O)Cc3ccccc3)C(=O)NCC)SC2(C)C)C(C)(C)S1,MIC90,434 strains,1 µg/mL
CC(=O)NC[C@H]1CN(c2ccc(-c3ccn[nH]3)c(F)c2)C(=O)O1,MIC,UC 30063,32 µg/mL
CC[C@H]1OC(=O)[C@H](C)C(=O)[C@H](C)[C@@H](O[C@@H]2O[C@H](C)C[C@H](N(C)C)[C@H]2O)[C@@]2(C)C[C@@H](C)C(=NC(=O)CN)[C@H](C)C(OC/C(=C\C=C\c3ccccc3)CO2)[C@]1(C)O,MIC,33929 (ampicillin-resistant),64 µg/mL
CO/N=C(/C(=O)N[C@@H]1C(=O)N2C(C(=O)O)=C(COC(N)=O)CS[C@H]12)c1ccco1,MIC90,434 strains,1 µg/mL
CC[C@H]1OC(=O)[C@@](C)(F)C(=O)[C@H](C)[C@@H](O[C@@H]2O[C@H](C)C[C@H](N(C)C)[C@H]2O)[C@@]2(C)C[C@@H](C)C(=NC(C)=O)[C@H](C)[C@@H](OC/C(=N\OCc3ccc(C(N)=O)cc3)CO2)[C@]1(C)O,MIC,33929 (ampicillin-resistant),2 µg/mL
O=CN(O)CCCP(=O)(O)O,MIC,ATCC31517,2 µg/mL
CC[C@H]1OC(=O)C[C@@H](O)[C@H](C)[C@@H](O[C@@H]2O[C@H](C)[C@@H](O)[C@H](N(C)C)[C@H]2O)C(C=O)C[C@@H](C)C(=O)/C=C/C(C)=C/[C@@H]1COC(=O)Nc1ccc(F)c(F)c1,MIC,33929 (ampicillin-resistant),1 µg/mL
O=C(NC[C@H]1CN(c2ccc(C3CCS(=O)(=O)CC3)c(F)c2)C(=O)O1)C1CC1,MIC,UC 30063,16 µg/mL
CC[C@H]1OC(=O)[C@H](C)C(=O)[C@H](C)[C@@H](O[C@@H]2O[C@H](C)C[C@H](N(C)C)[C@H]2O)[C@](C)(OC)C[C@@H](C)C(=O)[C@H](C)[C@H]2N(CCCCn3cnc(-c4cccnc4)c3)C(=O)O[C@]12C,MIC,33929 (ampicillin-resistant),2 µg/mL
COc1c(N2CCNC(C)C2)c(F)cc2c(=O)c(C(=O)O)cn(C3CC3)c12,MIC90,66 strains,0.06 µg/mL
CC[C@H]1OC(=O)[C@H](C)C(=O)[C@H](C)[C@@H](O[C@@H]2O[C@H](C)C[C@H](N(C)C)[C@H]2O)[C@@]2(C)C[C@@H](C)C(=NC(C)=O)[C@H](C)[C@@H](OC/C(=N\OCCc3ccccc3)CO2)[C@]1(C)O,MIC,33929 (ampicillin-resistant),32 µg/mL
CC[C@H]1OC(=O)[C@H](C)C(=O)[C@H](C)[C@@H](O[C@@H]2O[C@H](C)C[C@H](N(C)C)[C@H]2O)[C@@]2(C)C[C@@H](C)C(=NC(C)=O)[C@H](C)C(OC/C(=C\c3cnc4ccccc4c3)CO2)[C@]1(C)O,MIC,33929 (ampicillin-resistant),16 µg/mL
CC(=O)NC[C@H]1CN(c2ccc(-c3cnc(C(C)=O)s3)c(F)c2)C(=O)O1,MIC,UC 30063,>16 µg/mL
CC[C@H]1OC(=O)[C@H](C)C(=O)[C@H](C)[C@@H](O[C@@H]2O[C@H](C)C[C@H](N(C)C)[C@H]2O)[C@@]2(C)C[C@@H](C)C(=NC(C)=O)[C@H](C)C(OC/C(=N\OCc3ccccc3)CO2)[C@]1(C)O,MIC,33929 (ampicillin-resistant),8 µg/mL

Repeating the final 3 entries:

| compound | read-out | strain | value |
|---|---|---|---|
| CC[C@H]1OC(=O)[C@H](C)C(=O)[C@H](C)[C@@H](O[C@@H]2O[C@H](C)C[C@H](N(C)C)[C@H]2O)[C@@]2(C)C[C@@H](C)C(=NC(C)=O)[C@H](C)C(OC/C(=C\c3cnc4ccccc4c3)CO2)[C@]1(C)O | MIC | 33929 (ampicillin-resistant) | 16 µg/mL |
| CC(=O)NC[C@H]1CN(c2ccc(-c3cnc(C(C)=O)s3)c(F)c2)C(=O)O1 | MIC | UC 30063 | >16 µg/mL |
| CC[C@H]1OC(=O)[C@H](C)C(=O)[C@H](C)[C@@H](O[C@@H]2O[C@H](C)C[C@H](N(C)C)[C@H]2O)[C@@]2(C)C[C@@H](C)C(=NC(C)=O)[C@H](C)C(OC/C(=N\OCc3ccccc3)CO2)[C@]1(C)O | MIC | 33929 (ampicillin-resistant) | 8 µg/mL |